The target of this experiment is partner chain of the complex shown. Briefly: bacterial two-hybrid (B2H), LacZ activity. The note with it: read off a plot.

“And” between values parts separate entries of the source, which are not always exact repeats. Equal values may be shown once.

B1: unnamed (protein)
parent chain 1: MNLKPQTLMVAIQCVAARTRELDAQLQNDDPQNAAELEQLLVGYDLAADDLKNAYEQALGQYSGLPPYDRLIEEPAS
parent chain 2: MSYDYEKTSLTLYRAVFKANYDGDVGRYLHPDKELAEAAEVAPLLHPTFDSPNTPGVPARAPDIVAGRDGLYAPDTGGAAVFDRAGVLRRADGDFVIPDGTDIPPDLKVKQDSYNKRLQATHYTIMPAKPMYREVLMGQLDNFVRNAIRRQWEKARGL
Consider B1, for which the response (luminescence, arbitrary units) is 0.95 (parent: 2.8); 2.6 and 3.4 (parent: 3).

B2: unnamed (protein)
parent chain 1: B1 parent chain 1
parent chain 2: B1 parent chain 1
B2: for the setting “parent: 3.3”, the response (luminescence, arbitrary units) was 3.3 and 3 and 3.2.

For the origin of these results see PMC3325213 (2012).
